Measurements published in patent US20230357364A1.

Target: SARS-CoV-2 RBD (RBD-2) (SARS-CoV-2)

ACE2 (soluble, SPR competition) (from UniProt Q9BYF1 18-740) (receptor)
IC50: 0.12 µM
